Measured data: PubChem BioAssay AID624099 (ICCB-Longwood, 2012)
Purpose: 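Knock-downs relieving repression by E2 of an HPV18 LCR luciferase reporter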 (primary screen). Cell system: human C33A cervical carcinoma cells (HPV-negative) stably expressing BPV1 E2 and an HPV18 LCR luciferase reporter. Knock-down reagent: siRNA pool against human genes, 40 nM. Time to read-out: 72 h. Measured: 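HPV18 LCR reporter light per well, converted to plate-wise z-scores that exclude control wells, and averaged over triplicate plates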. Reading the numbers: mean z-score and z-score: higher = stronger reporter signal, weaker E2 silencing. Hit rule: 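Mean z ≥ 2 together with z ≥ 2 in two or more of the three replicates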.
This is one part, drawn at random, of about 21,000 deposited reagents. 497 of all reagents (2.4%) were called active. 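Higher z means weaker E2 silencing; only reporter increases were scored, and knock-downs that hurt cell survival may mask genuine repressor factors.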 Entries without a mark were called inactive. The numbers tell different reagents against one gene apart.

| gene symbol | pool no. | mean z-score | z-score, replicate A | z-score, replicate B | z-score, replicate C |
| --- | --- | --- | --- | --- | --- |
| DENND5B | 1 | 0.03 | -0.22 | 0 | 0.3 |
| GLB1L | 1 | 1.81 | 1.48 | 1.72 | 2.22 |
| OBP2B | 1 | -0.88 | -0.87 | -1.4 | -0.37 |
| WNT7A | 1 | -0.5 | -0.26 | -0.72 | -0.52 |
| PSCA | 1 | 0.8 | 0.99 | 0.79 | 0.62 |
| RPL7P48 | 1 | 0.27 | -0.04 | 0.4 | 0.43 |
| RHOBTB2 | 1 | -0.36 | -0.28 | -0.33 | -0.47 |
| CSF1R | 1 | -0.89 | 0.03 | -1.73 | -0.97 |
| ANKRD12 | 1 | -0.13 | -0.34 | 0.02 | -0.08 |
| GGA1 | 1 | 0.63 | 0.89 | 0.46 | 0.54 |
| THOC2 | 1 | -2.31 | -2.38 | -2.4 | -2.14 |
| LSP1 | 1 | 0.46 | 0.35 | 0.67 | 0.36 |
| ELP6 | 1 | 1.15 | 1.07 | 1.36 | 1.03 |
| FCRL6 | 1 | 0.16 | -0.11 | 0.41 | 0.19 |
| RPS15P4 | 1 | -2.91 | -2.68 | -3.03 | -3.04 |
| RAG1 | 1 | 0.57 | 0.53 | 0.67 | 0.51 |
| PTTG1IP | 1 | 1.03 | 0.83 | 1.06 | 1.2 |
| P2RY2 | 1 | -0.05 | -0.06 | -0.07 | -0.03 |
| TAC3 | 1 | 0.2 | 0.23 | 0.33 | 0.04 |
| ELL | 1 | 1.38 | 1.28 | 1.39 | 1.47 |
| DAPL1 | 1 | 0.11 | -0.15 | 0.54 | -0.05 |
| POU2AF3 | 1 | 0.51 | 0.69 | 0.68 | 0.15 |
| STX6 | 1 | 0.03 | 0.17 | 0.09 | -0.17 |
| NOA1 | 1 | 0.84 | 0.88 | 0.57 | 1.07 |
| LOC387690 (retired record) | 1 | 0.78 | 0.53 | 1.17 | 0.65 |
| NXN | 1 | 0.04 | 0.36 | -0.24 | 0.01 |
| LRR1 | 1 | -0.48 | -0.7 | -0.31 | -0.44 |
| PDAP1 | 1 | 0.34 | 0.58 | 0.39 | 0.06 |
| RPS27L | 1 | -0.22 | 0.08 | -0.17 | -0.57 |
| CPXM2 | 1 | 0.72 | 0.82 | 0.84 | 0.5 |
| NKIRAS2 | 1 | -0.71 | -0.6 | -0.88 | -0.65 |
| SHISAL1 | 1 | -0.83 | -1.29 | -0.52 | -0.7 |
| SLC25A40 | 1 | 1.14 | 0.95 | 1.43 | 1.03 |
| TAS2R14 | 1 | 1.82 | 1.77 | 1.7 | 2 |
| INTS6 | 1 | 1.9 | 2.08 | 2.19 | 1.42 |
| OBSCN | 1 | 0.28 | 0.36 | 0.15 | 0.33 |
| OBSCN | 2 | -0.56 | -0.91 | -0.6 | -0.16 |
| OBSCN | 3 | -0.12 | -0.11 | -0.17 | -0.09 |
| APBA1 | 1 | -0.94 | -0.78 | -1.1 | -0.93 |
| CEP192 | 1 | -0.35 | 0.03 | -0.57 | -0.5 |
| NDUFC2 | 1 | -1.57 | -1.43 | -1.7 | -1.58 |
| FAM95A | 1 | 0.22 | 0.31 | 0.4 | -0.05 |
| TIMP3 | 1 | -0.51 | -0.58 | -0.59 | -0.35 |
| NMRK2 | 1 | 1.61 | 1.91 | 1.53 | 1.39 |
| HSAJ2425 (retired record) | 1 | -0.14 | -0.09 | -0.37 | 0.05 |
| KRTAP13-3 | 1 | -0.91 | -0.93 | -0.86 | -0.94 |
| PPM1B | 1 | -0.2 | -0.47 | 0.03 | -0.16 |
| TRIM47 | 1 | 1.13 | 0.9 | 1.02 | 1.46 |
| PRDM8 | 1 | 0.84 | 1.08 | 0.82 | 0.62 |
| ASPRV1 | 1 | -0.06 | 0 | -0.04 | -0.14 |
| SERTM1 | 1 | 0.65 | 0.43 | 0.82 | 0.71 |
| TMEM257 (retired record) | 1 | 0.45 | 0.43 | 0.46 | 0.47 |
| ZNF81 | 1 | 0.08 | -0.05 | 0.15 | 0.14 |
| TGFB3 | 1 | -0.27 | -0.21 | -0.25 | -0.36 |
| MERTK | 1 | 0.8 | 0.89 | 0.63 | 0.88 |
| LOC339902 | 1 | 1.14 | 1.16 | 0.88 | 1.38 |
| SLC35A5 | 1 | 0.51 | 0.07 | 0.71 | 0.76 |
| ANGEL2 | 1 | -0.37 | -0.26 | -0.27 | -0.58 |
| PTCH1 | 1 | -0.47 | -0.57 | -0.52 | -0.31 |
| TMPRSS4 | 1 | -0.99 | -1.02 | -0.9 | -1.04 |
| UBE2O | 1 | 0.42 | 0.61 | 0.04 | 0.61 |
| GPR101 | 1 | 0.27 | -0.07 | 0.41 | 0.48 |
| SEC16B | 1 | -0.44 | -0.55 | -0.27 | -0.51 |
| ADRM1 | 1 | -0.3 | -0.35 | -0.18 | -0.37 |
| CYP4F22 | 1 | -0.22 | -0.52 | -0.41 | 0.27 |
| DSCAML1 | 1 | 1.28 | 1.11 | 1.32 | 1.42 |
| CHCHD5 | 1 | 2.03 (active) | 1.76 | 2.2 | 2.13 |
| ZSCAN26 | 1 | -0.46 | -0.42 | -0.49 | -0.45 |
| CYP3A43 | 1 | -0.13 | 0.04 | -0.68 | 0.24 |
| AP3M2 | 1 | 0.39 | 0.15 | 0.13 | 0.88 |
| PIGW | 1 | 0.69 | 0.78 | 0.45 | 0.83 |
| ARMCX4 | 1 | -1.51 | -1.7 | -1.22 | -1.6 |
| ARMCX4 | 2 | -0.87 | -0.45 | -0.81 | -1.36 |

Laid out differently: results already given.
OBP2B
- mean z-score: -0.88
- z-score, replicate A: -0.87
- z-score, replicate B: -1.4
- z-score, replicate C: -0.37

WNT7A
- mean z-score: -0.5
- z-score, replicate A: -0.26
- z-score, replicate B: -0.72
- z-score, replicate C: -0.52

PSCA
- mean z-score: 0.8
- z-score, replicate A: 0.99
- z-score, replicate B: 0.79
- z-score, replicate C: 0.62

RPL7P48
- mean z-score: 0.27
- z-score, replicate A: -0.04
- z-score, replicate B: 0.4
- z-score, replicate C: 0.43

RHOBTB2
- mean z-score: -0.36
- z-score, replicate A: -0.28
- z-score, replicate B: -0.33
- z-score, replicate C: -0.47

CSF1R
- mean z-score: -0.89
- z-score, replicate A: 0.03
- z-score, replicate B: -1.73
- z-score, replicate C: -0.97

ANKRD12
- mean z-score: -0.13
- z-score, replicate A: -0.34
- z-score, replicate B: 0.02
- z-score, replicate C: -0.08

GGA1
- mean z-score: 0.63
- z-score, replicate A: 0.89
- z-score, replicate B: 0.46
- z-score, replicate C: 0.54

THOC2
- mean z-score: -2.31
- z-score, replicate A: -2.38
- z-score, replicate B: -2.4
- z-score, replicate C: -2.14

LSP1
- mean z-score: 0.46
- z-score, replicate A: 0.35
- z-score, replicate B: 0.67
- z-score, replicate C: 0.36

ELP6
- mean z-score: 1.15
- z-score, replicate A: 1.07
- z-score, replicate B: 1.36
- z-score, replicate C: 1.03
